Assay results reported in BindingDB's records for doi:10.1021/jm900695w (Purdue University, 2009).

Target: T1, Dimer of Gag-Pol polyprotein [501-599,Q508K,L534I,L564I,C568A,C596A] (Human immunodeficiency virus 1, UniProt P03367, C568A/C596A/L534I/L564I/Q508K)
T1 construct: 501-599
Assay: Enzyme Inhibition Assay (Ki) and Antiviral Activity Assay (EC50/IC50)
Settings: pH 6.4; 25 °C

Structure (SMILES): COc1ccc2c(c1)OCCCCN(C[C@@H](O)[C@H](Cc1ccccc1)NC(=O)O[C@H]1CO[C@H]3OCC[C@H]31)S2(=O)=O [cyclic compound, 15h]
- EC50: 77 nM
